# PubChem BioAssay AID1532 (PCMD, 2009)
# The entries are a selection whose mix differs from that of the whole data set. The source made the active and inactive calls. Rule as the data show it: active = inhibition above about 30% (passing the limit was not always enough); inconclusive = no clear call, values can overlap the other calls.
# System: RmlC (dTDP-4-dehydrorhamnose 3,5-epimerase) and RmlD (dTDP-4-dehydrorhamnose reductase), coupled enzyme assay
# Assay: RmlC and RmlD coupled enzyme inhibitors, primary screen, biochemical, 384-well, compound mixtures, retest (AID 1532)
# Settings: 384-well mixture HTS, at 5.5 µM, active compounds read high
row,Compound,inhibition
1,N#CC1(Nc2ccccc2)CCN(CCc2ccccc2)CC1,inactive: -15.6%
2,O=C(NCC1(N2CCOCC2)CCCCC1)c1cc(=O)[nH]c2ccccc12,inactive: 34.2%
3,CN1CCC(Nc2cccc(F)c2)CC1,inactive: 6.29%
4,O=C(NCC1(N2CCOCC2)CCCCC1)c1cc2ccccc2o1,inactive: -5.25%
5,O=C(OC1CN2CCC1CC2)C1c2ccccc2Oc2ccccc21 (stereo not given),inactive: 39.2%
6,COc1ccc(NC2CCN(CCc3ccccc3)CC2)c(OC)c1,inactive: 0.69%
7,Fc1ccccc1NC1CCN(Cc2ccccc2)CC1,inactive: 9.27%
8,CCOc1ncccc1C(=O)NCC1(N2CCOCC2)CCCCC1,inactive: 5.15%
9,CCC(CO)(C(=O)OC1CN2CCC1CC2)c1ccccc1 (stereo not given),inactive: 5.96%
10,c1ccc(CN2CCC(Nc3ccccc3)CC2)cc1,inactive: 0.06%
